Experimental data from paper PMC7812859, “Structure of SARS-CoV-2 ORF8, a rapidly evolving immune evasion protein” (Proceedings of the National Academy of Sciences of the …, 2020).

Biological target: the molecule itself
Assay: SEC; […]; 20 mM Tris-HCl pH 8.0, 150 mM NaCl, 1 mM EDTA; […]

B1: SARS-CoV-2 ORF8 […], wild type (Leu84 form) (domain or fragment)
chain: not shown
notes: also called wild-type ORF8
stoichiometry N: 2
